Data as given in publication PMC10671849, “Synthesis and Evaluation of Marine-Inspired Compounds Result in Hybrids with Antitrypanosomal and Antileishmanial Activities” (Marine Drugs, 2023).

Tested on: T. brucei Lister 427 bloodstream forms
Assay: Anti-T. brucei activity, resazurin-based assay on bloodstream forms
Format: cell-based, Trypanosoma brucei
Details: selectivity index: CC50 THP-1 (72 h) / IC50 T. brucei (72 h)
Experimental: T. brucei Lister 427 bloodstream forms were grown in a humidified incubator at 37 °C and 5% CO2 in complete HMI-9 medium supplemented with 10% heat-inactivated fetal bovine serum (FBS) and 100 UI/mL penicillin/streptomycin. Parasite maintenance was performed in T25 ventilated flasks by subpassage at a concentration of 1 × 10^4/mL every 2 days in T25 ventilated flasks. Luciferase-expressing L. infantum (MHOM/MA/67/ITMAP-263) axenic amastigotes expressing episomal luciferase were maintained in MAA20 [31] at 37 °C in a 5% CO2 environment with subculture every 7 days at 1 × 10^6/mL in 5-mL T25 ventilated flasks.
The compounds’ efficacy against bloodstream-stage trypomastigotes was evaluated using a resazurin-based assay. Parasites were added to 100 µL of serial dilutions of compounds in supplemented complete medium at a cell density of 5 × 10^3/mL. As a quality control, a dose–response curve for the antitrypanosomal pentamidine was included in all the assays. The final volume of the assay was 200 µL/well. Each condition was carried out in duplicate. Following 72 h of incubation at the specific conditions for parasites, 20 […] of a 0.5 mM resazurin solution was added, and the plates were incubated for a further 4 h under the same conditions. Fluorescence was measured at 544 nm and 590 nm excitation and emission wavelength, respectively, using a Synergy 2 Multi-Mode Reader (Biotek, Winooski, VT, USA). The results are shown as % of parasite growth inhibition compared to control (untreated parasites) and represent the average of at least three independent experiments. The effect was evaluated by the determination of the IC50 value (concentration required to inhibit growth in 50%) and calculated by non-linear regression curves using GraphPad Prism software, version 8.1.1 for Windows (GraphPad Software, San Diego, CA, USA).

SMILES	SI T. brucei
C=CCc1cc(Cn2cc(C(=O)Nc3ccc(OC)cc3C(N)=O)nn2)c(O)c(OC)c1 [9b, 1-(5-allyl-2-hydroxy-3-methoxybenzyl)-N-(2-carbamoyl-4-methoxyphenyl)-1H-1,2,3-triazole-4-carboxamide]	>6
C=CCc1cc(Cn2cc(C(=O)Nc3ccc(F)cc3C(N)=O)nn2)c(O)c(OC)c1 [9c, 1-(5-allyl-2-hydroxy-3-methoxybenzyl)-N-(2-carbamoyl-4-fluorophenyl)-1H-1,2,3-triazole-4-carboxamide]	2
C=CCc1cc(Cn2cc(C(=O)Nc3ccc(Cl)cc3C(N)=O)nn2)c(O)c(OC)c1 [9d, 1-(5-allyl-2-hydroxy-3-methoxybenzyl)-N-(2-carbamoyl-4-chlorophenyl)-1H-1,2,3-triazole-4-carboxamide]	>6
C=CCc1cc(Cn2cc(-c3nc4ccc(OC)cc4c(=O)[nH]3)nn2)c(O)c(OC)c1 [10b, 2-(1-(5-allyl-2-hydroxy-3-methoxybenzyl)-1H-1,2,3-triazol-4-yl)-6-methoxyquinazolin-4(3H)-one]	>5
C=CCc1cc(Cn2cc(-c3nc4ccc(F)cc4c(=O)[nH]3)nn2)c(O)c(OC)c1 [10c, 2-(1-(5-allyl-2-hydroxy-3-methoxybenzyl)-1H-1,2,3-triazol-4-yl)-6-fluoroquinazolin-4(3H)-one]	>9
N=C(N)c1ccc(OCCCCCOc2ccc(C(=N)N)cc2)cc1 [Pentamidine, pentamidine, reference compound]	6734
C=CCc1cc(Cn2cc(-c3nc4ccccc4c(=O)o3)nn2)c(O)c(OC)c1 [compound 14, 2-(1-(5-allyl-2-hydroxy-3-methoxybenzyl)-1H-1,2,3-triazol-4-yl)-4H-benzo[d][1,3]oxazin-4-one]	>3
